Pooled drug test results. Numbers come from NIAID ChemDB, via PubChem.

Common to all: enzyme or target tests; agent: Hepatitis C virus

Lines come from different laboratories, so protocols vary. ICn: concentration for n% inhibition. Percent inhibition refers to the dose given; in toxicity tests it is the harm to the cells. Two numbers with a dash give a range or band. Blank or dashed fields: not listed here.

smiles,read-out,tested at,target,result
Cc1ccc(C(=O)N(c2cc(-c3ccccc3)sc2C(=O)O)C(C)C)cc1,IC50,,NS3 ATPase,<5 µM
O=C(Nc1ccsc1-c1nc(C(=O)O)c(O)c(=O)[nH]1)OCCc1c(F)cccc1Cl,IC50,,HCV polymerase,<25 µM
CN(c1cc(-c2ccccc2)sc1C(=O)O)S(=O)(=O)c1ccc(Cl)cc1Cl,IC50,,NS3 ATPase,<5 µM
O=C(Nc1ccsc1-c1nc(C(=O)O)c(O)c(=O)[nH]1)c1ccc(C#Cc2ccccc2)o1,IC50,,HCV polymerase,<25 µM
COc1ccc(-c2cc(Cl)cc(Cl)c2)c(-c2ccc3cc(-c4nc5cc(C(=O)O)ccc5n4C4CCCCC4)ccc3n2)c1,inhibition,100 µM,NS5B polymerase,101%
O=C(Cc1cn(Cc2ccccc2)c2ccccc12)Nc1ccsc1-c1nc(C(=O)O)c(O)c(=O)[nH]1,IC50,,HCV polymerase,<25 µM
COC(=O)c1sc(-c2ccc(C#N)cc2)cc1NS(=O)(=O)c1ccc(C)cc1C,IC50,,NS3 ATPase,<5 µM
O=C(N[C@@H](Cc1c[nH]c2ccc(O)cc12)C(=O)O)c1cnn2c(C3CCCCC3)c(-c3ccc(F)cc3)cnc12,IC50,,RNA-dependent RNA polymerase,<1 µM
COc1ccc(-c2ccccc2OC)c(-c2ccc3cc(-c4nc5cc(C(=O)O)ccc5n4C4CCCCC4)ccc3n2)c1,inhibition,100 µM,NS5B polymerase,101%
CNC(=O)c1c(-c2ccc(F)cc2)oc2cc(N(C)C)c(OC)cc12,IC50,,Nonstructural protein 5B,≤0.5 µM
O=C(O)c1nc(-c2ccccc2NS(=O)(=O)c2cccc3ccccc23)[nH]c(=O)c1O,IC50,,HCV polymerase,<100 µM
CNC(=O)c1c(-c2ccc(F)cc2)oc2ccc(OC)cc12,IC50,,Nonstructural protein 5B,≤0.5 µM
Cc1ccc(C(=O)N(C)c2cc(-c3ccc(CO)cc3)sc2C(=O)O)cc1,IC50,,NS3 ATPase,5–20 µM
O=C(O)c1cnn2c(C3CCCCC3)c(-c3cccc(OCc4ccc(Cl)c(Cl)c4)c3)cnc12,IC50,,RNA-dependent RNA polymerase,1–10 µM
CNC(=O)c1c(-c2ccc(F)cc2)oc2cc(N3CCOCC3)c(OC3CCCC3)cc12,IC50,,Nonstructural protein 5B,≤0.5 µM
O=C(O)c1ccc2c(c1)nc(-c1ccc3nc(CCn4cccn4)ccc3c1)n2C1CCCCC1,inhibition,100 µM,NS5B polymerase,97.06%
Cc1nc(-c2ccc(S(=O)(=O)Nc3ccccc3-c3nc(C(=O)O)c(O)c(=O)[nH]3)s2)cs1,IC50,,HCV polymerase,<100 µM
CCCCc1ccc(-c2cc(NS(=O)(=O)c3ccccc3C)c(C(=O)O)s2)cc1,IC50,,NS3 ATPase,<5 µM
CNC(=O)c1c(-c2ccc(F)cc2)oc2cc(N(C)S(C)(=O)=O)c(OCc3nc(C(=O)O)cs3)cc12,IC50,,Nonstructural protein 5B,≤0.5 µM
O=S(=O)(Nc1cnn2c(C3CCCCC3)c(-c3ccc(OCc4ccccc4)cc3)cnc12)c1ccc(Cl)cc1,IC50,,RNA-dependent RNA polymerase,>10 µM
O=C(Cc1ccccc1)Nc1cccc(S(=O)(=O)NC(=O)Nc2cscc2-c2nc(C(=O)O)c(O)c(=O)[nH]2)c1,IC50,,HCV polymerase,<25 µM
COc1ccc(-c2cnc3c(C(=O)O)cnn3c2C2CCCCC2)c(C)c1,IC50,,RNA-dependent RNA polymerase,1–10 µM
Cc1ccccc1S(=O)(=O)Nc1cc(-c2ccc(N)cc2)sc1C(=O)O,IC50,,NS3 ATPase,5–20 µM
Nc1cscc1-c1nc(C(=O)O)c(O)c(=O)[nH]1,IC50,,HCV polymerase,<25 µM
O=C(O)c1cc2nc(-c3ccc(Cl)cc3Cl)cc(-c3ccc(Cl)cc3)n2n1,IC50,,RNA-dependent RNA polymerase,>10 µM
Cc1ccc(C(=O)N(c2cc(-c3ccccc3)sc2C(=O)O)C(C)C)c(C(N)=O)c1,IC50,,NS3 ATPase,5–20 µM
O=C(NC(Cc1c[nH]c2ccc(O)cc12)C(=O)O)c1ccc2c(c1)nc(-c1ccc3nc(-c4ccccc4)cnc3c1)n2C1CCCCC1,inhibition,33 µM,NS5B polymerase,98.59%
O=C(NCc1ccccc1F)Nc1ccsc1-c1nc(C(=O)O)c(O)c(=O)[nH]1,IC50,,HCV polymerase,<25 µM
CNC(=O)c1c(-c2ccc(F)cc2)oc2cc(-c3ccnn3C)c(OC(C)C)cc12,IC50,,Nonstructural protein 5B,≤0.5 µM
CCCN(CCC)Cc1ccc2cc(-c3nc4cc(C(=O)O)ccc4n3C3CCCCC3)ccc2n1,inhibition,33 µM,NS5B polymerase,87.01%
C=Cc1cc2oc(-c3ccc(F)cc3)c(C(=O)NC)c2cc1OC(C)C,IC50,,Nonstructural protein 5B,≤0.5 µM
CC(C)(C)c1ccc(CN(C(=O)C2CCC2)c2cc(-c3ccccc3)sc2C(=O)O)cc1,IC50,,NS3 ATPase,<5 µM
O=C(O)c1ccc2c(c1)nc(-c1ccc3nc(-c4ccc(Cl)c(Cl)c4)ccc3c1)n2C1CCCCC1,inhibition,33 µM,NS5B polymerase,98.94%

Repeating the final 2 entries:

smiles	read-out	tested at	target	result
CC(C)(C)c1ccc(CN(C(=O)C2CCC2)c2cc(-c3ccccc3)sc2C(=O)O)cc1	IC50		NS3 ATPase	<5 µM
O=C(O)c1ccc2c(c1)nc(-c1ccc3nc(-c4ccc(Cl)c(Cl)c4)ccc3c1)n2C1CCCCC1	inhibition	33 µM	NS5B polymerase	98.94%